Values from PubChem BioAssay AID1259414 (Drosophila RNAi Screening Center, 2018).
The deposit covers about 24,000 reagents; below is an unselected part of those that have a named target and a result. Of all reagents, about 1,210 (5%) were called active. 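Inactive calls also include excluded dsRNAs with several or no targets, genes unexpressed in JW18, and well A1, regardless of score.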 A number with no mark means an inactive call. Names joined by + are all predicted targets of the reagent.

- Screen: 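Genome-wide screen for host control of endosymbiont load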 (primary screen)
- Cell system: Drosophila JW18 cells infected with Wolbachia
- Reagents: long dsRNA against Drosophila genes, 0.25 µg dsRNA per well of a 384-well plate
- Timing: 5 days
- Treatment: cells persistently infected with Wolbachia before knock-down; no added drug
- Measured: 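Imaged fluorescence in situ signal for Wolbachia 23S rRNA per DAPI-counted host cell, given as a robust z-score within each plate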
- Reading the numbers: Wolbachia per cell robust z: higher = more Wolbachia per host cell than the plate typical
- Call rule: 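Hit when robust z is 1.5 or more, or -1.5 or less, in at least two of three replicates; excludes dsRNAs with several or no targets, genes not expressed in JW18 and well A1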

predicted target	DRSC id	Wolbachia per cell robust z, rep 1	Wolbachia per cell robust z, rep 2	Wolbachia per cell robust z, rep 3
Acat1	DRSC17766	-0.418 (active)	-9.83	-3.53
Acat1	DRSC28395	-0.531	0.535	-0.268
Vps51	DRSC06519	-1.03	-1.56	-0.863
Sgf11	DRSC09987	-0.973	0.234	1.03
cona	DRSC16281	0.00335	0.718	1.34
CG43759	DRSC19464	-0.148	-9.46	-0.319
CG43759	DRSC19543	2.12	0.573	0.83
CG43759	DRSC26393	-0.231	-0.275	-0.308
CG11816	DRSC19428	0.394	0.24	-1.39
CG11816	DRSC23612	-0.199	-3.73	-0.395
CG13482	DRSC10024	-0.348	-0.391	-1.64
CG13482	DRSC23975	0.393	-0.736	0.322
CG13482	DRSC41290	0	0.315	-0.0265
CG3927	DRSC04433	0.389	-5.62	-4.43
CG3927	DRSC22813	0.518	-0.581	-1.31
Pu	DRSC04645	0.812	-0.0832	-1.39
Pu	DRSC29066	-0.854	-0.533	-0.782
CG17746	DRSC08521	0.496	-0.518	0.968
CG17746	DRSC23333	-1.82	-0.651	-0.053
Cad88C	DRSC15486	-0.96	-1.5	-1.02
Cad88C	DRSC26126	-0.853	-1.27	0.287
CG6337	DRSC06977	-4.62	0.941	-0.599
CG6337	DRSC21870	-1.42	-0.03	-0.342
CG3544	DRSC00613	1.32	1.2	0.298
tbc	DRSC20540	-1.82	-1.36	-4.09
tbc	DRSC23084	0.493	1.03	0.76
tbc	DRSC29058	-0.659	1.08	0.622
tamo	DRSC04446	-0.827	0.543	0.324
tamo	DRSC24895	1.71	-0.967	-0.239
Tasp1	DRSC10495	0.546	0.183	-0.124
beat-IIb	DRSC13219	0.157	-0.332	0.0695
beat-IIb	DRSC14816	-0.717	-1.33	-0.217
beat-IIb	DRSC15546	-1.23	-2.02	-3.81
CG3589	DRSC04392	-0.542	0.753	-0.391
CG3589	DRSC26755	-0.448	1.74	-1.45
CG6295	DRSC16012	-4.4	0.51	1.21
CG6295	DRSC24229	-1.54	0.105	-0.282
Cap-D2	DRSC15401	1.52	0.888	1.2
Cap-D2	DRSC24096	1.04	0.89	0.548
CG3014	DRSC15458	0.408	-1.63	0.0146
Argk2	DRSC10483	-0.794	-0.462	-0.685
Argk2	DRSC23349	-2.6 (active)	0.259	-3.94
Argk2	DRSC28762	-1.81	-0.581	-0.363
Drsl3	DRSC22630	0.65	-0.617	0.183
Drsl3	DRSC29261	0.0596	-1.08	0.417
CG3473	DRSC01915	-2.76	0.344	-0.403
CG33655	DRSC38896	1.08	-0.711	0.292
upd3	DRSC19636	-3	-0.444	-0.215
upd3	DRSC19968	-0.275	0.162	-4.54
upd3	DRSC22169	0.184	-0.598	-0.172
CG42354 + CG42353	DRSC23154	-0.853	0.454	4.06
pio	DRSC04386	0.806	-0.507	-0.357
pio	DRSC29371	0.472	1.09	0.909
CG1889	DRSC18195	0.714	0.254	-0.56
CG1889	DRSC27433	0.489	-0.768	0.569
Cubn2	DRSC10561	0.631	0.0105	0.0532
Cubn2	DRSC22044	-0.239	0.344	-1.42
CG31139	DRSC21393	1.01	1.13	0.691
CG6071	DRSC10579	1.06	-0.19	-0.684
CG12824	DRSC06173	-0.429	0.643	-0.756
CG31974	DRSC00522	-1.46	-0.00528	0.338
CG14374	DRSC14834	0.854	-0.0732	0.89
sicily	DRSC19704	-1.82	-0.943	0.191
dl	DRSC03521	-1.19	0.78	-0.193
dl	DRSC29023	0.791	1.03	0.795
dl	DRSC40753	-0.247	-2.86	-0.379
slif	DRSC11635	-2.38	0.76	-0.856
slif	DRSC27438	0.852	0.308	0.937
Ir52a	DRSC06262	-2.03	0.612	0.14
CG43084	DRSC09998	0.238	-0.296	-0.658
fkh	DRSC16949	-0.586	0.264	-0.126
fkh	DRSC28213	0.229	0.353	0.21
CG5645	DRSC10532	0.781	1.44	0.138
Sf3a1	DRSC15166	0.586	1.31	3.32
CG43861	DRSC02170	-0.656	-0.47	-0.45
CG43861	DRSC02308	-0.518	-0.0731	-0.632
Dnali1	DRSC16158	-1.14	-1.39	-1.81
CHOp24	DRSC18310	-0.605 (active)	1.72	1.73
eIF5	DRSC20165	0.151	0.0447	0.756
CG15431	DRSC00446	-3.71	-0.394	-0.635
CG15431	DRSC29532	0.61	1.24	1.13
ND-30	DRSC08243	-0.431	-0.0578	0.354
lncRNA:cherub	DRSC36550	0.212	1.25	0.176
lncRNA:cherub	DRSC36551	-0.225	1.14	0.185
lncRNA:cherub	DRSC36552	0.932	-1.71	1.45
CG5644	DRSC10531	-0.036	-1.4	-0.55
Ufsp2	DRSC10231	0.133	0.637	-0.158

Hits, of those listed so far:
predicted target	DRSC id	Wolbachia per cell robust z, rep 1	Wolbachia per cell robust z, rep 2	Wolbachia per cell robust z, rep 3
Acat1	DRSC17766	-0.418 (active)	-9.83	-3.53
Argk2	DRSC23349	-2.6 (active)	0.259	-3.94
CHOp24	DRSC18310	-0.605 (active)	1.72	1.73
